Among the data in patent US20240327815A1 are fold decrease of live virus neutralization efficacy, Beta compared to Delta values, retold here.

The test has as its target spike of live SARS-CoV-2 Beta variant (SARS-CoV-2) (UniProt P0DTC2). As to the kind of experiment: cell-based or functional assay.

The substance REGEN-COV registered a fold decrease of live virus neutralization efficacy, Beta compared to Delta of 2 fold.
